Measured values from several laboratories, pooled; numbers as filed in NIAID ChemDB.

Shared fields: whole-cell or culture tests; species: Herpes simplex virus 2; read-out: EC50

Lines come from different laboratories, so protocols vary. Blank or dashed fields: not listed here. ECn is the concentration giving n% inhibition of infection, replication or growth.

compound,strain or isolate,cells,read by,result
O=c1[nH]c(=S)n([C@@H]2O[C@H](CO)[C@@H](O)[C@@H]2O)cc1Br,G,MRC-5,plaque count,62.8 µM
Nc1nc2c(ncn2CCC(CO)CO)c(=O)[nH]1,ACV-resistant,HEL,cytopathic effect,9 µg/mL
Cn1c2c(O)cccc2c(=O)c2c(O)cc3c(c21)C=CC(C)(C)O3,-,HEF,plaque count,5 µg/mL
Nc1ncnc2c1ncn2OCC/C=C/P(=O)(O)O,MS,MRC-5,plaque count,>300 µM
CCn1cc(C(=O)O)c(=O)c2ccc(-c3ccncc3)cc21,-,VERO,plaque count,>200 µg/mL
O=c1[nH]c(=O)n([C@H]2C[C@H](O)[C@@H](CO)O2)c[c]1[Hg+].O[C@H](C[S-])[C@H](O)CS,HG-25,HELA TK-,virus yield,0.602 µg/mL
O=c1[nH]cnc2c1ncn2CCOCP(=O)(O)O,3 strains,Primary rabbit kidney cells,cytopathic effect,>400 µg/mL
CO[C@H]1C[C@H](O[C@H]2CC[C@]3(C=O)[C@H]4CC[C@]5(C)[C@@H](C6=CC(=O)OC6)CC[C@]5(O)[C@@H]4CC[C@]3(O)C2)O[C@H](C)[C@H]1O[C@@H]1O[C@H](CO[C@@H]2O[C@H](CO)[C@@H](O)[C@H](O)[C@H]2O)[C@@H](O)[C@H](O)[C@H]1O,333,GMK AH1,plaque count,0.34 µM
O=c1[nH]c(=S)n([C@@H]2O[C@H](CO)[C@@H](O)[C@@H]2O)cc1I,G,MRC-5,plaque count,>259 µM
Nc1nc(N)c2ncn(CC/C=C/P(=O)(O)O)c2n1,MS,MRC-5,plaque count,>300 µM
Nc1ncc2ncn(CCOCP(=O)(O)O)c2n1,-,Primary rabbit kidney cells,-,10 µg/mL
CO[C@H]1[C@@H](O)C[C@H](O[C@H]2[C@@H](O)C[C@H](O[C@H]3[C@@H](O)C[C@H](O[C@H]4CC[C@@]5(C)[C@H](CC[C@@H]6[C@@H]5CC[C@]5(C)[C@@H](C7=CC(=O)OC7)CC[C@]65O)C4)O[C@@H]3C)O[C@@H]2C)O[C@@H]1C,333,GMK AH1,plaque count,0.09 µM
Nc1ncnc2c1ncn2CCOCP(=O)(O)O,3 strains,Primary rabbit kidney cells,cytopathic effect,7 µg/mL
Nc1nc2c(ncn2OCC/C=C\P(=O)(O)O)c(=O)[nH]1,MS,MRC-5,plaque count,>300 µM
CCn1c(C)c(C(N)=O)c(=O)c2ccc(-c3ccncc3)cc21,-,VERO,plaque count,>50 µg/mL
O=c1[nH]cnc2c1ncn2CC(CO)OCP(=O)(O)O,3 strains,Primary rabbit kidney cells,cytopathic effect,>400 µg/mL
Nc1ncnc2c1ccn2[C@H]1C[C@H](O)[C@@H](CO)O1,G,PRK,cytopathic effect,40 µg/mL
Nc1ccn(C[C@@H](CO)OCP(=O)(O)O)c(=O)n1,ACV-resistant,HEL,cytopathic effect,0.1 µg/mL
O=c1[nH]c(=S)n([C@H]2C[C@H](O)[C@@H](CO)O2)cc1F,G,MRC-5,plaque count,30.7 µM
Nc1nc2c(ncn2COC(CO)CO)c(=O)[nH]1,G,HEL,cytopathic effect,0.002 µg/mL
C[C@H]1O[C@@H](O[C@H]2CC[C@]3(C=O)[C@H]4CC[C@]5(C)[C@@H](C6=CC(=O)OC6)CC[C@]5(O)[C@@H]4CC[C@]3(O)C2)C[C@H](O)[C@@H]1O,333,GMK AH1,plaque count,0.004 µM
Nc1ncnc2c1ncn2C[C@H]1COP(=O)(O)CO1,3 strains,Primary rabbit kidney cells,cytopathic effect,4 µg/mL
CC1(C)C=Cc2c(cc(O)c3c(=O)c4cccc(O)c4[nH]c23)O1,-,HEF,plaque count,0.73 µg/mL
NC(=O)c1cn([C@@H]2O[C@H](CO)[C@@H](O)[C@H]2O)c2ncnc(N)c12,G,PRK,cytopathic effect,0.07 µg/mL
CCCCCc1c2c(c3c(c1O)c(=O)c1ccccc1n3C)C=CC(C)(C)O2,-,HEF,plaque count,>20 µg/mL
Nc1ncnc2c1ncn2CC/C=C/P(=O)(O)O,MS,MRC-5,plaque count,>300 µM
NC(=O)c1csc2cc(-c3ccncc3)ccc2c1=O,-,VERO,plaque count,>100 µg/mL
C[C@H]1O[C@@H](O[C@H]2CC[C@@]3(C)[C@H](CC[C@@H]4[C@@H]3C[C@@H](O)[C@]3(C)[C@@H](C5=CC(=O)OC5)CC[C@]43O)C2)C[C@H](O)[C@@H]1O[C@H]1C[C@H](O)[C@H](O[C@H]2C[C@H](O)[C@H](O[C@@H]3C[C@H](CO)[C@@H](O)[C@H](O)[C@H]3O)[C@@H](C)O2)[C@@H](C)O1,333,GMK AH1,plaque count,0.54 µM
CCn1cc2c(=O)n(C)nc-2c2ccc(-c3ccncc3)cc21,-,VERO,plaque count,>3.1 µg/mL
Nc1ncnc2c1ncn2C[C@@H](CO)OCP(=O)(O)O,-,Primary rabbit kidney cells,-,4 µg/mL
Nc1nc(=O)c2ncn(CCOCP(=O)(O)O)c2c(=O)[nH]1,-,HepG2.2.15,cytopathic effect,1.4 µM
Nc1ncnc2c1ccn2[C@@H]1O[C@H](CO)[C@H](O)[C@H]1O,196,PRK,cytopathic effect,0.07 µg/mL
CC(=O)Oc1cc(OC(C)=O)c2c(=O)c3ccccc3[nH]c2c1,-,HEF,plaque count,6.5 µg/mL
Nc1nc2c(ncn2CC/C=C\P(=O)(O)O)c(=O)[nH]1,MS,MRC-5,plaque count,>300 µM
COc1c(OC)c(OC)c2c(c1O)c(=O)c1ccc(O)c(OC)c1n2C,-,HEF,plaque count,4.9 µg/mL
O=c1[nH]c(=S)n([C@@H]2O[C@H](CO)[C@@H](O)[C@@H]2O)cc1Cl,G,MRC-5,plaque count,207 µM
COc1ccc2c(=O)c3c(OC)cc4c(c3n(C)c2c1OC)C=CC(C)(C)O4,-,HEF,plaque count,6.5 µg/mL
CCn1cc2c(=O)ncnc-2c2ccc(-c3ccncc3)cc21,-,VERO,plaque count,>100 µg/mL
O=c1[nH]c(=O)n([C@H]2C[C@H](O)[C@@H](CO)O2)c[c]1[Hg+].OCC(O)C[S-],HG-25,KB,virus yield,0.05 µg/mL
NC(=O)c1csc([C@@H]2O[C@H](CO)[C@@H](O)[C@H]2O)n1,MS,HeLa,cytopathic effect,4 µg/mL
O=c1[nH]cnc2c1ncn2C[C@@H](CO)OCP(=O)(O)O,-,Primary rabbit kidney cells,-,>400 µg/mL
COc1cc(O)c2c(=O)c3cccc(O)c3n(C)c2c1OC,-,HEF,plaque count,0.74 µg/mL
COC(=O)[C@H](C)NP(=O)(OC[C@H]1C/C1=C/n1cnc2c(N)nc(N)nc21)Oc1ccccc1,-,HFF,plaque count,12.7 µM
O=c1[nH]c(=O)n([C@H]2C[C@H](O)[C@@H](CO)O2)c[c]1[Hg+].O=c1cc[nH]c(=S)[nH]1,HG-25,KB,virus yield,4.608 µg/mL
Cc1cn([C@@H]2O[C@H](CO)[C@@H](O)[C@@H]2O)c(=S)[nH]c1=O,G,MRC-5,plaque count,>365 µM
CCO/N=C/c1ccc(OCCC2CCN(c3ccc(C)nn3)CC2)cc1,HGP,KB,virus yield,0.0021 µM
N#Cc1cn([C@@H]2O[C@H](CO)[C@@H](O)[C@@H]2O)c2ncnc(N)c12,G,PRK,cytopathic effect,2 µg/mL
Nc1ncnc2c1ncn2C[C@@H](CO)OCP(=O)(O)O,G,HEL,cytopathic effect,0.08 µg/mL
CCCCCc1c(OC)cc(O)c2c(=O)c3ccc(O)c(OC)c3n(C)c12,-,HEF,plaque count,10 µg/mL
Nc1ncnc2c1ncn2OC(/C=C/P(=O)(O)O)CO,MS,MRC-5,plaque count,>300 µM
O=c1[nH]cnc2c1ncn2CCOCP(=O)(O)O,-,Primary rabbit kidney cells,-,>400 µg/mL
Nc1ncnc2c1ccn2[C@H]1C[C@@H](O)[C@@H](CO)O1,G,PRK,cytopathic effect,70 µg/mL

A second listing of 7 rows from above:

| compound | strain or isolate | cells | read by | result |
|---|---|---|---|---|
| O=c1[nH]cnc2c1ncn2C[C@@H](CO)OCP(=O)(O)O | - | Primary rabbit kidney cells | - | >400 µg/mL |
| Nc1ncnc2c1ncn2CCOCP(=O)(O)O | 3 strains | Primary rabbit kidney cells | cytopathic effect | 7 µg/mL |
| O=c1[nH]c(=O)n([C@H]2C[C@H](O)[C@@H](CO)O2)c[c]1[Hg+].OCC(O)C[S-] | HG-25 | KB | virus yield | 0.05 µg/mL |
| NC(=O)c1cn([C@@H]2O[C@H](CO)[C@@H](O)[C@H]2O)c2ncnc(N)c12 | G | PRK | cytopathic effect | 0.07 µg/mL |
| NC(=O)c1csc2cc(-c3ccncc3)ccc2c1=O | - | VERO | plaque count | >100 µg/mL |
| Nc1ccn(C[C@@H](CO)OCP(=O)(O)O)c(=O)n1 | ACV-resistant | HEL | cytopathic effect | 0.1 µg/mL |
| CCCCCc1c(OC)cc(O)c2c(=O)c3ccc(O)c(OC)c3n(C)c12 | - | HEF | plaque count | 10 µg/mL |